{"source": "PubChem BioAssay AID603", "about": "(National Center for Advancing Translational Sciences (NCATS), 2007)", "note": "Only a part is listed here, and it is no random draw. Calls of active or inactive are those of the source. The call rests on the fitted dose curve; in most records, active means well fitted curve in the direction sought with a large enough effect; inconclusive means small, poorly fitted or top-dose-only effect; inactive means flat fitted curve, though single readings scatter. On the % scale 0 is the no-effect control and ±100 the full control effect.", "data": [{"test_system": "DNA polymerase III holoenzyme (E. coli)", "assay": "qHTS Assay for Inhibitors of DNA Polymerase III Holoenzyme System", "settings": "reconstituted DNA polymerase III holoenzyme replication, biochemical; at 57.1 µM (top of the series) unless noted", "description": "NIH Molecular Libraries Screening Centers Network [MLSCN]\nNIH Chemical Genomics Center [NCGC]\nAssay Provider: Charles McHenry, University of Colorado\nE. coli DNA polymerase III holoenzyme complex was assayed for DNA production by fluorescent detection of the double-stranded DNA product with PicoGreen dye. The holoenzyme complex was reconstituted from the following purified protein components: DNA Polymerase III, beta subunit processivity factor, SSB single-stranded DNA binding protein, and Primase. Single-stranded, circular M13Gori was used as a substrate with dNTPs and NTPs also supplied to the substrate reagent. Compounds from the NCGC collection were incubated with the holoenzyme mixture for 15 min at room temperature to allow binding to occur, and then the reaction was started by the addition of substrate. After 30 min incubation at room temperature, PicoGreen solution containing EDTA was added to stop the reaction and to visualize the double-stranded DNA produced. Reaction progress was measured in a ViewLux CCD imager in fluorescence intensity mode by using 480 nm excitation and 540 nm emission filter set.\nNCGC Assay Protocol Summary:\nBuffer. 50 mM Hepes-KOH, pH 7.5, 5 % Glycerol, 0.02% NP40, 30 mM potassium;\nglutamate, 1.5 mM Magnesium Acetate, 16 uM TCEP.\nBuffer in columns 3 and 4 as negative control (no enzyme).\nSubstrate solution: 5 uM each dATP, dGTP, dCTP and TTP, 50 uM each GTP, CTP, UTP and 200 uM ATP, 1.4 nM M13gori (final concentrations).\nEnzyme: 154 nM SSB, 2 nM Primase, 1 nM Beta, 0.35 nM Pol III (final concentrations).\nPicoGreen/EDTA: 10 mM Tris-HCl, 10 mM EDTA, 5 uM PicoGreen (final concentrations).\nControl titration: ChemBridge 5805060 (from 10 mM, then 1:2, in duplicate) was pin-transferred to upper half of column 2.\nThree uL of holoenzyme mixture were dispensed to 1536-well Greiner black solid bottom plates. Compounds and controls (23 nL) were transferred via Kalypsys PinTool. The plates were incubated for 15 min at room temperature, and then 1 uL of substrate solution was added to start the reaction. After room temperature incubation for 35 minutes, 1 uL of PicoGreen solution was added to each well and the plates were read 480 nm excitation and 540 nm emission using ViewLux (Perkin-Elmer) High-throughput CCD imager and fluorescence protocol settings.\nKeywords: NIH Roadmap, MLSCN, MLI, MLSMR, qHTS, NCGC, DNA Polymerase III, DNAPol3, DNAPoly3, DNA replication targets", "values": [{"smiles": "N/C(=N\\O)c1c(N)no[n+]1[O-]", "activity change, negative = inhibition": "inactive: -4.2%"}, {"smiles": "ClCCOP(OCCCl)OCCCl", "activity change, negative = inhibition": "inactive: -4.1%"}, {"smiles": "Fc1ccccc1NC1CCN(Cc2ccccc2)CC1", "activity change, negative = inhibition": "inactive: -4.6%"}, {"smiles": "CCC(CO)(C(=O)OC1CN2CCC1CC2)c1ccccc1", "note": "(stereo not given)", "activity change, negative = inhibition": "inactive: 0.7%"}, {"smiles": "CCOc1ncccc1C(=O)NCC1(N2CCOCC2)CCCCC1", "activity change, negative = inhibition": "inactive: -6%"}, {"smiles": "O=C(O)C1(Nc2ccccc2)CCN(Cc2ccccc2)CC1", "activity change, negative = inhibition": "inactive: 1.5% [at 11.4 µM]"}, {"smiles": "O=C(OC1CN2CCC1CC2)C1c2ccccc2Oc2ccccc21", "note": "(stereo not given)", "activity change, negative = inhibition": "inactive: -1.1%"}, {"smiles": "N#CC1(Nc2ccccc2)CCN(CCc2ccccc2)CC1", "activity change, negative = inhibition": "inactive: 1.4%"}, {"smiles": "NC1CCCCC1.NP(=O)(O)N(CCCl)CCCl", "activity change, negative = inhibition": "inactive: -16.3% [at 11.4 µM]"}, {"smiles": "CCOP(=O)(Cl)Cl", "activity change, negative = inhibition": "inactive: 5.6%"}]}]}
